Results deposited as PubChem BioAssay AID504761 (Drosophila RNAi Screening Center, 2011)

Assay: 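Fly genes whose silencing reduces dengue virus type 2 infection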 (primary screen)
System: D.Mel-2 cells from Drosophila
Knock-down reagent: long dsRNA against Drosophila genes
Treatment: infection with dengue virus type 2; dose and infection time not stated
Measured: 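Cells stained for dengue envelope protein and imaged; percent of infected cells per well on duplicate plates, ranked by infection, with stained nuclei counted for cell number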
Scale: infection score: higher = more virus-infected cells; cell count: higher = more cells in the well
Active means: 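Very low infection ranking in both replicate wells (chance probability at most 0.065), then a retest showing infection dropped 1.5-fold or more at p below 0.05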
Calls: active = confirmed: knock-down lowers infection; inactive = not picked or not confirmed
The screen tested about 22,000 reagents; this is a random part of those with a known target gene and a result. Of all reagents, 116 (0.52%) were called active. 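Calls depend on retest data that are not deposited; infection was ranked per plate without normalising between plates; the unit of the infection score is not given.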 Raw values vary from plate to plate and are shown uncorrected. The numbers tell different reagents against one gene apart. Not all columns of the deposit are shown. Not given: the amount of reagent, the time to read-out.

CG3285 (GeneID 33547) | infection score, replicate 1 = 6.47; cell count, replicate 1 = 6487; outcome = inactive
CG9825 (GeneID 37624) #1 | infection score, replicate 1 = 8.65; cell count, replicate 1 = 6831; outcome = inactive
CG9825 (GeneID 37624) #2 | infection score, replicate 1 = 14.9; cell count, replicate 1 = 4813; outcome = inactive
Adar (GeneID 31130) | infection score, replicate 1 = 8.2; cell count, replicate 1 = 2574; outcome = inactive
Hsc70-2 (GeneID 41609) #1 | infection score, replicate 1 = 9.62; cell count, replicate 1 = 5850; outcome = inactive
Hsc70-2 (GeneID 41609) #2 | infection score, replicate 1 = 15.2; cell count, replicate 1 = 3680; outcome = inactive
CG11723 (GeneID 33388) #1 | infection score, replicate 1 = 12.7; cell count, replicate 1 = 5488; outcome = inactive
CG11723 (GeneID 33388) #2 | infection score, replicate 1 = 2.47; cell count, replicate 1 = 6081; outcome = inactive
Wnt10 (GeneID 34011) #1 | infection score, replicate 1 = 3.96; cell count, replicate 1 = 5762; outcome = inactive
Wnt10 (GeneID 34011) #2 | infection score, replicate 1 = 25.4; cell count, replicate 1 = 5556; outcome = inactive

Just “infection score, replicate 1”, for 2 of the entries above:
Adar (GeneID 31130) = 8.2
Hsc70-2 (GeneID 41609) #1 = 9.62

Additional results follow.
CG12398 (GeneID 32422) | infection score, replicate 1 = 13.9; cell count, replicate 1 = 3475; outcome = inactive
CG42699 (GeneID 31507) #1 | infection score, replicate 1 = 3.36; cell count, replicate 1 = 5831; outcome = inactive
CG42699 (GeneID 31507) #2 | infection score, replicate 1 = 4.44; cell count, replicate 1 = 6257; outcome = inactive
CG42699 (GeneID 31507) #3 | infection score, replicate 1 = 10.1; cell count, replicate 1 = 6927; outcome = inactive
Arc42 (GeneID 42364) #1 | cell count, replicate 1 = 382; outcome = inactive
Arc42 (GeneID 42364) #2 | infection score, replicate 1 = 0.75; cell count, replicate 1 = 531; outcome = inactive
Pde6 (GeneID 41760) #1 | infection score, replicate 1 = 5.43; cell count, replicate 1 = 6427; outcome = inactive
Pde6 (GeneID 41760) #2 | infection score, replicate 1 = 7.66; cell count, replicate 1 = 6398; outcome = inactive
Pde6 (GeneID 41760) #3 | infection score, replicate 1 = 1.45; cell count, replicate 1 = 6143; outcome = inactive
Mtp (GeneID 35362) | infection score, replicate 1 = 33.5; cell count, replicate 1 = 4745; outcome = inactive
cnn (GeneID 36491) #1 | infection score, replicate 1 = 1.45; cell count, replicate 1 = 5930; outcome = inactive
cnn (GeneID 36491) #2 | cell count, replicate 1 = 409; outcome = inactive
